Target: ngε_1/ngζ_1 (Neisseria gonorrhoeae, UniProt D5K9G7)
Assay: X-ray crystal structure (soak), […] Å
Details: active site of ngζ_1; 20 mM soak, 100 mM sodium citrate pH 4.5

Amino acid sequences for entries named in this document (tags omitted). A change or cut given only in a name is not applied to a line headed by its entry.
UniProt D5K9G7: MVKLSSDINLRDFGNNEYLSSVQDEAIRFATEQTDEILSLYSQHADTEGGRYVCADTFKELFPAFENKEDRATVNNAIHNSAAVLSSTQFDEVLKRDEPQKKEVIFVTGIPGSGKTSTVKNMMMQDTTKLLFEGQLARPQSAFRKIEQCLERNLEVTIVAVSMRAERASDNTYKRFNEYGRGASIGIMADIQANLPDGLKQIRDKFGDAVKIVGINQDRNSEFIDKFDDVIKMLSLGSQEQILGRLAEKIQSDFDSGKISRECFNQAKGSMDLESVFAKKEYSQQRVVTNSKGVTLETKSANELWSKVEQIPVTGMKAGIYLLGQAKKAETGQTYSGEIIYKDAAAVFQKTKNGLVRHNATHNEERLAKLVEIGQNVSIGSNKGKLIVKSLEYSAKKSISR

## CC(=O)N[C@H]1[C@@H](OP(=O)(O)OP(=O)(O)OC[C@H]2O[C@@H](n3ccc(=O)[nH]c3=O)[C@H](O)[C@@H]2O)O[C@H](CO)[C@@H](O)[C@@H]1O[C@H](C)C(=O)O
  X-ray crystal structure (soak), 2.7 Å: we soaked UNAM into crystals and determined the structure of the complex
